According to patent US20230218652A1, “ANTIFUNGAL PRODRUGS” (CENTRE NATIONAL DE LA RECHERCHE SCIENTIFIQUE, priority 2020, published 2023):

Tested on: β-N-acetylhexosaminidase from Canavalia ensiformis E.C. 3.2.1.52
Experiment: Enzymatic release of AmB from the prodrug
Type: biochemical
Details: 150 μM, 0.07 U enzyme, 37° C., pH 7.4, 0.1 M PBS, 3% DMSO

CC(=O)N[C@H]1[C@H](Oc2ccc(COC(=O)N[C@@H]3[C@H](O)[C@H](O[C@H]4/C=C/C=C/C=C/C=C/C=C/C=C/C=C/[C@H](C)[C@@H](O)[C@@H](C)[C@H](C)OC(=O)C[C@H](O)C[C@H](O)CC[C@@H](O)[C@H](O)C[C@H](O)C[C@]5(O)C[C@H](O)[C@@H](C(=O)O)[C@H](C4)O5)O[C@H](C)[C@H]3O)cc2[N+](=O)[O-])O[C@H](CO)[C@@H](O)[C@@H]1O [Compound 1]
release of AmB from the prodrug by β-N-acetylhexosaminidase (in words) (listed as prodrug): quickly released
release of AmB from the prodrug by β-N-acetylhexosaminidase (in words) (listed as prodrug 1): confirmed
